Source: patent US9061010B2, “Methods of treating a Flaviviridae family viral infection and compositions for treating a Flaviviridae family viral infection” (The Board of Trustees of the Leland Stanford Junior …, priority 2007, dated 2015)

Test system: infectious HCV clone (J6/JFH)
Experiment: Real-time PCR assay of HCV replication in HCV-infected Huh7.5 cells
Conditions: read-out: EC50 against HCV replication in cells, FIG. 17D

## Cc1cc2ncn(Cc3ccc(Cl)cc3)c2cc1C
  EC50: 1000 nM
